Measurements as given in publication PMC10808981, “Synthesis and structure–activity relationships of aryl fluorosulfate-based inhibitors as novel antitubercular agents” (Bioorganic & Medicinal Chemistry Letters, 2024).
Read-outs that look alike come from different tables or passages of the source.

Test system: Mtb H37Rv
Assay: MIC determination in Mtb H37Rv, Microdilution Alamar Blue Assay (MABA)
Assay type: cell-based, Mycobacterium tuberculosis

Compound: 4-((2,6-difluoro-4-(1H-1,2,3-triazol-1-yl)benzyl)oxy)phenyl sulfurofluoridate [Compound 3 m]
- fold increase in anti-TB activity (H37Rv MIC): 3 fold

Compound: O=S(=O)(F)Oc1ccc(OCc2c(F)cc(-n3ccnn3)cc2F)cc1 [Compound 3 l, 4-((2,6-difluoro-4-(1H-1,2,3-triazol-1-yl)benzyl)oxy)phenyl sulfurofluoridate]
- fold increase in anti-TB activity (H37Rv MIC): 3 fold

Compound: O=S(=O)(F)Oc1ccc(OCc2ccc(-n3cncn3)cc2F)cc1 [Compound 3d, 4-((2-fluoro-4-(1H-1,2,4-triazol-1-yl)benzyl)oxy)phenyl sulfurofluoridate]
- fold increase in anti-TB activity (H37Rv MIC) (compared to initial lead 3a): 4 fold

Compound: O=S(=O)(F)Oc1ccc(OCc2c(F)cc(-n3cncn3)cc2F)cc1 [Compound 3i, 4-((2,6-difluoro-4-(1H-1,2,4-triazol-1-yl)benzyl)oxy)phenyl sulfurofluoridate]
- fold increase in anti-TB activity (H37Rv MIC) (compared to initial lead 3a): 4 fold

Compound: NC(=O)c1ncn(-c2cc(F)c(COc3ccc(OS(=O)(=O)F)cc3)c(F)c2)n1 [Compound 20 k, 4-((4-(3-carbamoyl-1H-1,2,4-triazol-1-yl)-2,6-difluorobenzyl)oxy)phenyl sulfurofluoridate]
- fold increase in anti-TB activity (H37Rv MIC): 4 fold

Compound: Cc1ncn(-c2cc(F)c(COc3ccc(OS(=O)(=O)F)cc3)c(F)c2)n1 [Compound 20a, 4-((2,6-difluoro-4-(3-methyl-1H-1,2,4-triazol-1-yl)benzyl)oxy)phenyl sulfurofluoridate]
- fold increase in anti-TB activity (H37Rv MIC): 2 fold

Compound: CS(=O)(=O)Nc1ncn(-c2cc(F)c(COc3ccc(OS(=O)(=O)F)cc3)c(F)c2)n1 [Compound 21b, 4-((2,6-difluoro-4-(3-(methylsulfonamido)-1H-1,2,4-triazol-1-yl)benzyl)oxy)phenyl sulfurofluoridate]
- fold increase in anti-TB activity (H37Rv MIC) (compared to initial lead 3a): 47 fold
